Results of unrelated studies side by side (data: NIAID ChemDB).

Common to all: growth or infection tests; species: HIV-1; cell line: MT-4; read-out: EC50

Blank or dashed fields: not listed here. Neighbouring rows are from separate reports. ECn: concentration that inhibits the pathogen or its effect by n%.

structure | strain or isolate | mutations | method | result
Nc1ncnc2c1ncn2[C@H]1C=C[C@@H](CO)O1 | IIIB |  | cytopathic effect / trypan blue | 41 µM
CCN(CC)CCOc1ccc(NC(=O)COc2ccccc2C(=O)c2ccc(F)cc2)cc1 | RF |  | cytopathic effect | 1.293 µM
CC(=O)OC[C@H]1O[C@@H](SCCOP(=O)(O)OC[C@H]2O[C@@H](n3cc(C)c(=O)[nH]c3=O)C[C@@H]2N=[N+]=[N-])[C@H](OC(C)=O)[C@@H](OC(C)=O)[C@@H]1OC(C)=O | IIIB |  | cytopathic effect / MTT | 0.05 µM
Nc1cc2c(=O)c(C(=O)O)cn(C3CC3)c2nc1N1CCN(c2ccccn2)CC1 | IIIB |  | cytopathic effect / MTT | 1.3 µM
C=C(c1cc(OC)cc(OC)c1)c1c(C)c(=O)[nH]c(=O)n1COCc1ccccc1 | IIIB | Y181C | MTT | 53.48 µM
O=C(O)c1ccc(OCc2nc3ccccc3n3cccc23)cc1 |  |  | cytopathic effect / MTT | >8 µM
Cc1c(C(C)(O)c2ccccc2Cl)n(COCc2ccccc2)c(=O)[nH]c1=O | IIIB |  | MTT | 34.46 µM
Nc1cc2c(=O)c(C(=O)O)cn(C3CC3)c2cc1N1CCN(c2cnccn2)CC1 | IIIB |  | cytopathic effect / MTT | 4.05 µM
Cc1cc(-c2ccc(C#N)cc2)cc(C)c1Oc1ccnc(S(=O)(=O)C(C)C(=O)Nc2ccc(Cl)cc2)n1 | IIIB | Y181C | MTT | 0.146 µM
Cc1c(C(C)(O)c2cccc3ccccc23)n(COCc2ccccc2)c(=O)[nH]c1=O | IIIB |  | MTT | >41.78 µM
COc1ccc(Nc2nc3ccccc3n3cccc23)cc1 |  |  | cytopathic effect / MTT | >100 µM
Cc1cc(-c2ccc(C#N)cc2)cc(C)c1Oc1ccnc(S(=O)(=O)CC(=O)NCCc2ccc(Br)cc2)n1 | IIIB |  | MTT | >8.44 µM
Cc1sc(-c2ccc(C(N)=O)cc2)c(C2=CCC(C(C)C)CC2)c1C(OC(C)(C)C)C(=O)O | NL4-3 |  | ATP | 0.09 µM
Cc1ccc(NC(=O)COc2nsnc2-c2cccc3ccccc23)c([N+](=O)[O-])c1 | IIIB |  | MTT | >29 µM
COC(=O)C(Cc1c[nH]c2ccccc12)NC(=O)CCCN1C(=O)c2ccccc2C1=O | IIIB |  | MTT | >4.23 µM
Cc1cc(-c2ccc(C#N)cc2)cc(C)c1Oc1ccnc(S(=O)(=O)CC(=O)Nc2ccc(Br)cc2)n1 | IIIB | Y188L | MTT | 0.977 µM
C[C@H](CSCC(=O)O)C(=O)N1CCC[C@@H]1C(=O)O | IIIB |  | MTT | >125 µg/mL
Fc1cccc(F)c1Cn1c(=S)[nH]c2ccc(Cl)cc21 | IIIB |  | cytopathic effect / MTT | 0.58 µg/mL
CC(CS)C(=O)N1CCC[C@@H]1C(=O)NCC(=O)N1CCN(c2nc3ccccc3s2)CC1 | IIIB |  | MTT | >1.21 µg/mL
O=C(COc1nsnc1-c1cccc2ccccc12)Nc1ccc(Cl)cc1Cl | IIIB |  | MTT | >116 µM
Cc1cc(C#N)cc(C)c1Oc1ccnc(S(=O)(=O)CC(=O)Nc2ccc(C#N)cc2)n1 | IIIB |  | MTT | 0.002 µM
Fc1cccc(F)c1Cn1c(=S)[nH]c2cccnc21 | IIIB |  | cytopathic effect / MTT | 15.8 µg/mL
CCCCC1(CCc2cccc(NS(=O)(=O)c3ccc(F)cc3)c2)COC(=O)C(C(CC)c2cccc(NS(=O)(=O)c3ccc(F)cc3)c2)=C1O | IIIB |  |  | 16.3 µM
CC(C)C1=C2C(CC1=O)[C@@H](C(=O)NCCN1CCS(=O)(=O)CC1)C[C@@H]1[C@@H]2CC[C@@H]2C3[C@H](C)C=C(C4=CCC(C(=O)O)CC4)C(C)(C)[C@@H]3CC[C@]21C | NL4-3 | V370A | MTS / propidium iodide | >25 µM
Cc1ccc2[nH]c(=S)n(Cc3c(F)cccc3F)c2c1 | IIIB |  | cytopathic effect / MTT | 11.92 µg/mL
COc1c(Cl)cc(C(=CCCCCN(C(=O)C=C(c2cc(Cl)c(OC)c(C(=O)O)c2)c2cc(Cl)c(OC)c(C(=O)O)c2)[C@H]2CC[C@]3(C)C4CC[C@@]5(C)C(CC[C@@H]5C(C)CCCC(C)C)C4CC[C@H]3C2)c2cc(Cl)c(OC)c(C(=O)O)c2)cc1C(=O)O | IIIB |  | cytopathic effect / MTT | 9.9 µM
Nc1ccn([C@H]2CC[C@@H](CO)O2)c(=O)n1 | IIIB |  | MTT | 0.206 µM
O=C(CCCN1C(=O)c2ccccc2C1=O)NC(=S)NC(Cc1ncc[nH]1)C(=O)O | IIIB |  | MTT | >47.26 µM
C[C@H](CSCCN1C(=O)c2ccccc2C1=O)C(=O)N1CCC[C@@H]1C(=O)O | IIIB |  | MTT | >22.43 µg/mL
CC(Oc1nsnc1-c1cccc2ccccc12)C(=O)Nc1ccccc1Cl | IIIB |  | MTT | 19 µM
CCCCC1(CCc2cccc(NS(=O)(=O)c3ccccn3)c2)COC(=O)C(C(CC)c2cccc(NS(=O)(=O)c3ccccn3)c2)=C1O | IIIB |  |  | 3.9 µM
Cc1cccc(C(C)c2c(C(C)C)c(=O)[nH]c(=O)n2COCc2ccccc2)c1 | IIIB | Y181C | MTT | 5.57 µM
O=C(COc1ccc(Cl)cc1C(=O)c1ccccc1)Nc1ccccc1 | RF |  | cytopathic effect | 0.001 µM
Cc1cn([C@H]2C[C@H](N=[N+]=[N-])[C@@H](COP(=O)(OCCSC(=O)C(C)(C)C)OCCSC(=O)C(C)(C)C)O2)c(=O)[nH]c1=O | IIIB |  | cytopathic effect / MTT | 0.81 µM
CN(C)n1cc(C(=O)O)c(=O)c2cc(N)c(N3CCN(c4ccccn4)CC3)cc21 | IIIB |  | cytopathic effect / MTT | >1.15 µM
CCCC(C(=O)O)c1c(C)nc2sc3c(c2c1C(C)(C)C)CCCC3 | IIIB |  | MTT | >131 µM
Cc1cn([C@H]2C[C@H](N=[N+]=[N-])[C@@H](COP(=O)(O)OCCS[C@@H]3O[C@H](CO)[C@@H](O)[C@H](O)[C@H]3O)O2)c(=O)[nH]c1=O | IIIB |  | cytopathic effect / MTT | 0.05 µM
Cc1cc(-c2ccc(C#N)cc2)cc(C)c1Oc1ccnc(S(=O)(=O)CC(=O)Nc2ccc(Cl)cc2)n1 | IIIB | E138K | MTT | 0.197 µM
CCOC(=O)c1ccc(OCc2nc3ccccc3n3cccc23)cc1 |  |  | cytopathic effect / MTT | >100 µM
Cc1nc2ccccc2c(-c2cc(F)c3c(c2C)CCCO3)c1[C@H](OC(C)(C)C)C(=O)O | NL4-3 | T124S | luminescence | 0.015 µM
CC(C)C1=C2C(CC1=O)[C@@H](C(=O)NCCN1CCC(S(C)(=O)=O)CC1)C[C@@H]1[C@@H]2CC[C@@H]2C3[C@H](C)C=C(C4=CCC(C(=O)O)CC4)C(C)(C)[C@@H]3CC[C@]21C | NL4-3 |  | MTS / propidium iodide | >23.9 µM
CCOC(=O)c1ccc(OCc2nc3cc(C(F)(F)F)ccc3n3cccc23)cc1 |  |  | cytopathic effect / MTT | >100 µM
C[C@]12CCC3C(CC[C@H]4C[C@@H](CC=C(c5cc(Cl)c(O)c(C(=O)O)c5)c5cc(Cl)c(O)c(C(=O)O)c5)CC[C@]34C)C1CC[C@@H]2CC=C(c1cc(Cl)c(O)c(C(=O)O)c1)c1cc(Cl)c(O)c(C(=O)O)c1 | IIIB |  | cytopathic effect / MTT | 14 µM
C=C(C)[C@@H]1CC[C@]2(C(=O)NCCCCCCCC(=O)N[C@@H](CC(C)C)[C@@H](O)CC(=O)O)CC[C@]3(C)[C@H](CC[C@@H]4[C@@]5(C)CC[C@H](O)C(C)(C)[C@@H]5CC[C@]43C)[C@@H]12 | RF |  | cytopathic effect / MTT | 0.75 µM
CSCCC(NC(=S)NC(=O)CCCN1C(=O)c2ccccc2C1=O)C(=O)O | IIIB |  | MTT | >78.22 µM
Fc1cccc(Cn2cc(COc3nsnc3-c3cccc4ccccc34)nn2)c1 | IIIB |  | MTT | >67 µM
Nc1cc2c(=O)c(C(=O)O)cn(C3CC3)c2cc1N1CCN(c2ccc3ccccc3n2)CC1 | IIIB |  | cytopathic effect / MTT | >0.2 µM
CCCCCCC(C)[C@H]1CCC2C3CC[C@H]4C[C@@H](CCC=C(c5cc(Cl)c(O)c(C(=O)O)c5)c5cc(Cl)c(O)c(C(=O)O)c5)CC[C@]4(C)C3CC[C@@]21C | RF |  | cytopathic effect / MTT | 5.1 µM
Fc1cccc(F)c1CCn1c(=S)[nH]c2cccnc21 | IIIB |  | cytopathic effect / MTT | >25 µg/mL
Cc1cc(-c2ccc(C#N)cc2)cc(C)c1Oc1ccnc(S(=O)(=O)C(C)C(=O)NCc2ccc(F)cc2)n1 | IIIB |  | MTT | 5.83 µM
CCOC(=O)c1ccc(NC(=O)COc2nsnc2-c2cccc3ccccc23)cc1 | IIIB |  | MTT | >85 µM
CCC[C@@]1(CCc2ccccc2)CC(O)=C([C@H](CC)c2cccc(NS(=O)(=O)c3ccc(C(F)(F)F)cn3)c2)C(=O)O1 | IIIB |  |  | 0.7 µM
COC(=O)C(CO)NC(=O)CCCN1C(=O)c2ccccc2C1=O | IIIB |  | MTT | >96.11 µM
CC1(C)CC=C(c2cn(-c3nccc(C(=O)NC4CCC(N5CC6CCC(C5)O6)CC4)n3)c3ccc(F)c([C@H](OC(C)(C)C)C(=O)O)c23)CC1 | NL4-3 | E170G | luminescence | 0.018 µM
Cc1ccccc1C(C)c1c(C)c(=O)[nH]c(=O)n1COCc1ccccc1 | IIIB | Y181C | MTT | >343 µM
COc1cc(Nc2nc3cc(C(F)(F)F)ccc3n3cccc23)cc(OC)c1OC |  |  | cytopathic effect / MTT | >57 µM
Cc1ccccc1C(C)(O)c1c(C)c(=O)[nH]c(=O)n1COCc1ccccc1 | IIIB |  | MTT | >175 µM
COc1cc(OCc2nc3ccccc3n3cccc23)cc(OC)c1OC |  |  | cytopathic effect / MTT | >55 µM
Cc1cc(-c2ccc(C#N)cc2)cc(C)c1Oc1ccnc(S(=O)(=O)C(C)C(=O)Nc2ccc(C#N)cc2)n1 | RES056 |  | MTT | 1.433 µM
COc1c(Cl)cc(C(=CCCCCN[C@@H]2CC[C@]3(C)C4CC[C@@]5(C)C(CC[C@@H]5C(C)CCCC(C)C)C4CC[C@H]3C2)c2cc(Cl)c(OC)c(C(=O)O)c2)cc1C(=O)O | IIIB |  | cytopathic effect / MTT | >150 µM
COC(=O)C(NC(=O)CCCN1C(=O)c2ccccc2C1=O)C(C)C | IIIB |  | MTT | >125 µM
O=C(O)CCC(NC(=O)c1ccc(Nc2nc3cc(C(F)(F)F)ccc3n3cccc23)cc1)C(=O)O |  |  | cytopathic effect / MTT | >100 µM
C=C(c1ccc(C)cc1)c1c(C(C)C)c(=O)[nH]c(=O)n1COCc1ccccc1 | IIIB |  | MTT | 4.09 µM
Cc1cc(/C=C/C#N)cc(C)c1Oc1ccnc(S(=O)(=O)CC(=O)Nc2ccc(Cl)cc2)n1 | RES056 |  | MTT | 0.228 µM
COc1ccc2[nH]c(=S)n(Cc3c(F)cccc3F)c2n1 | IIIB |  | cytopathic effect / MTT | 1.96 µg/mL
CCc1nc([N+](=O)[O-])c(N2CCN(C(=O)CSC[C@@H](C)C(=O)N3CCC[C@@H]3C(=O)O)CC2)n1Cc1ccccc1 | IIIB |  | MTT | >2.23 µg/mL
Cc1cc(-c2ccc(C#N)cc2)cc(C)c1Oc1ccnc(S(=O)(=O)CC(=O)Nc2ccc(F)cc2)n1 | IIIB |  | MTT | 0.023 µM

A second listing of 9 rows from above:

{"structure": "COC(=O)C(CO)NC(=O)CCCN1C(=O)c2ccccc2C1=O", "strain or isolate": "IIIB", "method": "MTT", "result": ">96.11 µM"}
{"structure": "Cc1c(C(C)(O)c2ccccc2Cl)n(COCc2ccccc2)c(=O)[nH]c1=O", "strain or isolate": "IIIB", "method": "MTT", "result": "34.46 µM"}
{"structure": "Cc1cc(-c2ccc(C#N)cc2)cc(C)c1Oc1ccnc(S(=O)(=O)C(C)C(=O)Nc2ccc(C#N)cc2)n1", "strain or isolate": "RES056", "method": "MTT", "result": "1.433 µM"}
{"structure": "Nc1ccn([C@H]2CC[C@@H](CO)O2)c(=O)n1", "strain or isolate": "IIIB", "method": "MTT", "result": "0.206 µM"}
{"structure": "O=C(COc1ccc(Cl)cc1C(=O)c1ccccc1)Nc1ccccc1", "strain or isolate": "RF", "method": "cytopathic effect", "result": "0.001 µM"}
{"structure": "Cc1cc(-c2ccc(C#N)cc2)cc(C)c1Oc1ccnc(S(=O)(=O)C(C)C(=O)Nc2ccc(Cl)cc2)n1", "strain or isolate": "IIIB", "mutations": "Y181C", "method": "MTT", "result": "0.146 µM"}
{"structure": "Cc1cc(-c2ccc(C#N)cc2)cc(C)c1Oc1ccnc(S(=O)(=O)C(C)C(=O)NCc2ccc(F)cc2)n1", "strain or isolate": "IIIB", "method": "MTT", "result": "5.83 µM"}
{"structure": "Cc1cn([C@H]2C[C@H](N=[N+]=[N-])[C@@H](COP(=O)(OCCSC(=O)C(C)(C)C)OCCSC(=O)C(C)(C)C)O2)c(=O)[nH]c1=O", "strain or isolate": "IIIB", "method": "cytopathic effect / MTT", "result": "0.81 µM"}
{"structure": "COc1ccc2[nH]c(=S)n(Cc3c(F)cccc3F)c2n1", "strain or isolate": "IIIB", "method": "cytopathic effect / MTT", "result": "1.96 µg/mL"}